In US5563176A (priority 1994, dated 1996):

Tests used:
HL-60 cells = experiment: toxicity of illudin derivatives and other agents in HL-60 cells; assay type: cell-based, human; details: Table 5
MDA-231, breast = experiment: inhibition of thymidine incorporation after two hour exposure, MDA-231; assay type: cell-based
[1] = test system: harvested apparently resistant Molt-4 tumors; experiment: in vitro resistance of harvested Molt-4 tumors; details: two apparently resistant Molt-4 tumors
mdr daughter cell lines = experiment: resistance of mdr daughter cell lines; details: lines with 200 to 800 fold resistance to conventional agents
MCF-7, breast = experiment: inhibition of thymidine incorporation after two hour exposure, MCF-7; assay type: cell-based, human
HL60 cells (myeloid) = experiment: inhibition of thymidine incorporation after two hour exposure, HL60; assay type: cell-based, human; details: myeloid leukemia cells
C1498 (AML) = experiment: colony formation zone size, C1498 (AML); assay type: cell-based, mouse; details: vs CFU-gm; compared with illudin S
[2] = test system: MCF7 ADR (GSH-transferase) cells; experiment: sensitivity of mdr lines, MCF7 ADR; assay type: cell-based, human; details: MCF/Adr vs MCF7-wt

SMILES: CN(N=O)C(=N)N[N+](=O)[O-]
- IC50 (HL-60 cells): 15 µM

SMILES: CC1=C2C(=O)C(C)(C)C=C2C(=O)[C@](C)(O)C12CC2 [Dehydroilludin M]
- selective toxicity (MDA-231, breast): selective toxicity
- resistance of harvested tumors in vitro [1]: no evidence of resistance
- resistance of mdr daughter cell lines (mdr daughter cell lines): minimal or no resistance
- selective toxicity (MCF-7, breast): selective toxicity
- selective toxicity (HL60 cells (myeloid)): selective toxicity
- selectivity towards AML line (C1498 (AML)): markedly more selective towards the AML line

SMILES: CC1=C2C(=C[C@@](C)(CO)C2O)C(=O)[C@](C)(O)C12CC2 (stereo partly shown) [Illudin S]
- decrease in sensitivity of daughter line [2]: 4.2 fold
- resistance of harvested tumors in vitro [1]: no evidence of resistance
- resistance of mdr daughter cell lines (mdr daughter cell lines): minimal or no resistance
